According to PMC3688583, “Eubacterial SpoVG Homologs Constitute a New Family of Site-Specific DNA-Binding Proteins”:
Construct, isoform or probe ends are uncertain for at least one entry. Tags and fusion partners may be left off the protein sequences shown.

Target: T1, SpoVGSa (Staphylococcus aureus) (UniProt Q7A7B5)
T1 sequence (looked up, limits assumed): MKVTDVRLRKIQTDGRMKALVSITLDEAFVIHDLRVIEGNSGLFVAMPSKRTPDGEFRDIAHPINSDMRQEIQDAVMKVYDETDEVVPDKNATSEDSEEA
Experiment: EMSA
Details: labeled cap probe; 50 mM Tris-HCl pH 7.5, 1 mM DTT, 150 nM EDTA, 50 ng/ml poly dI-dC, phosphatase and protease inhibitors; about 20 C; protein stocks in 50 mM Tris-HCl, 25 mM KCl; recombinant protein; protein details: 6xHis (pET101); label: 5' biotin as probe, unlabeled as competitor; probe letters rebuilt from the primers and the genome

Sequence “TATTTACCTCCCTTAAAAATTTTCATTAAAATTGGTATTATATATATAGTATTTACATATTACATATCGTTTAAACAATTAATTACTTTTAAACCGCATTATTTTCGCCTTTTTATTTATATGAAATTAAAAATAATTATACTCTAAAGTAGTAATAGTTTGTGAAATGAGTATCAATCTTAATATTTTCTTTATTTAAAAAAATGATTGTCTAGTTTGTATCTCTCTGAAGATTTGGCAATAAATAAAAGCCGATAACCGTATAATGATTATCGACTTAAAGTTTATGTGGCATTTTTTACTTTTGTAATTTCAGGTGAGTTAGATGATTATTATCAGATAG (double strand) [cap5 5' non-coding DNA]” has a Kd of 0.316 µM.
